Compound potency records, mixed from different reports. Data source: NIAID ChemDB in PubChem.

All rows: tests in culture; organism: HIV-1; read by: cytopathic effect / MTT; read-out: EC50

Conditions beyond the fields shown may differ between rows.

structure | cells | changes | strain or isolate | result
CC(=O)Oc1ccc(/C=C/C(=O)O[C@H](C(=O)O)[C@H](OC(=O)/C=C/c2ccc(OC(C)=O)c(OC(C)=O)c2)C(=O)O)cc1OC(C)=O | MT-4 | AMD3100-resistant | NL4-3 | >93 µM
CC(C)CNc1nc(N)nc2c1ncn2CCOCP(=O)(O)O | CEM | - | IIIB | 0.5 µg/mL
CN(C)CCCN1c2ccccc2Sc2ccc(Cl)cc21 | CEM-T4 + CEM | - | IIIB | >6.3 µg/mL
CCc1c(Sc2ccc3ccccc3c2[N+](=O)[O-])n(COCc2ccccc2)c(=O)[nH]c1=O | MT-4 | - | IIIB | 0.065 µM
CCN(C)c1nc(N)nc2c1ncn2CCOCP(=O)(O)O | MT-4 | - | IIIB | 0.19 µg/mL
Cc1c(C(C)C)s/c(=N\S(=O)(=O)c2cc(Br)ccc2C#N)n1C | MT-4 | - | IIIB | 0.0021 µM
O=C(O)P(=O)(O)O | MT-2 | RT-W88S | LAI viral clone (RT-W88S) | 120 µM
CC(=O)C1(c2ccccc2)C(=O)C=C2N(C1=O)c1ccc(Cl)cc1C2(C)C | MT-4 | - | RF | 6.5 µM
CCc1c(Sc2ccc3ccccc3c2N)n(COCc2ccccc2)c(=O)[nH]c1=O | MT-4 | - | IIIB | 3.65 µM
CC(C)c1s/c(=N\S(=O)(=O)c2cccc([N+](=O)[O-])c2)n(C)c1Cl | MT-4 | - | IIIB | 0.048 µM
O=c1[nH]cnc2c1ncn2[C@H]1CC[C@@H](CO)O1 | MT-4 | - | IIIB | 5.37 µM
CN1CCN(C2=Nc3cc(Cl)ccc3Nc3ccc(O)cc32)CC1 | CEM-T4 + CEM | - | IIIB | >18 µg/mL
CC(C)(C)OC(=O)N[C@@H](Cc1ccccc1)[C@@H](O)C[C@@H](Cc1ccc(OCC(=O)O)cc1)C(=O)N[C@H]1c2ccccc2C[C@H]1O | MT-4 | - | IIIB | >10 µM
Nc1ccn([C@H]2CC[C@@H](CO)O2)c(=O)n1 | MT-2 | - | IIIB | ~0.2 µM
Cc1cn([C@H]2C[C@H](N=[N+]=[N-])[C@@H](CO)O2)c(=O)[nH]c1=O | MT-4 | - | NL4 Suc-HSA-resistant | 0.007 µg/mL
C[C@H](Cn1cnc2c(N)ncnc21)OCP(=O)(O)O | MT-4 | - | IIIB | 1.91 ± 0.41 µg/mL
CCCc1cc(=O)oc2c3c(c4c(c12)OC(C)(C)C=C4)O[C@H](CC)[C@H](C)[C@@H]3O | CEM + CEM-SS | - | IIIB | >20.9 µM
Cc1c(C(C)(C)C)s/c(=N\S(=O)(=O)c2cccc(Cl)c2O)n1C | MT-4 | - | IIIB | 11 µM
CC1(C)C2=CC(=O)C(O)(c3ccccc3)C(=O)N2c2ccc(Cl)cc21 | MT-4 | - | RF | 0.69 µM
[Li+] | MT-2 | - | IIIB | >200 µg/mL
CCCc1cc(=O)oc2c3c(c4c(c12)OC(C)(C)C=C4)OC(C)(C)[C@H](C)[C@@H]3O | CEM + CEM-SS | - | IIIB | >21.3 µM
CC1(C)C2=CC(=O)C(c3ccccc3)([N+](=O)[O-])C(=O)N2c2ccc(Cl)cc21 | MT-4 | - | RF | 13.4 µM
CC(C)(C)OC(=O)N[C@@H](Cc1ccccc1)[C@@H](O)C[C@@H](Cc1ccc(OCc2nnnn2Cc2ccccc2)cc1)C(=O)N[C@H]1c2ccccc2C[C@H]1O | MT-4 | - | IIIB | 0.05 µM
Cc1c(C(C)C)s/c(=N\S(=O)(=O)c2cc(F)ccc2C#N)n1C | MT-4 | - | IIIB | 0.0077 µM
OCCN1CCN(CCCN2c3ccccc3Sc3ccc(C(F)(F)F)cc32)CC1 | MT-2 | - | IIIB | >4.7 µg/mL
COCn1c(Sc2cccc3ccccc23)c(C(C)C)c(=O)[nH]c1=O | MT-4 | - | IIIB | 0.51 µM
CCCc1cc(=O)oc2c3c(c4c(c12)OC(C)(C)C=C4)O[C@H](CC)[C@H](C)[C@H]3O | CEM + CEM-SS | - | IIIB | >11.6 µM
Cc1c(C(C)(C)C)s/c(=N\S(=O)(=O)c2cc(Cl)ccc2[N+](=O)[O-])n1C | MT-4 | - | IIIB | 0.36 µM
Cc1c(Sc2ccccc2)n(COCCO)c(=O)[nH]c1=O | MT-4 | - | IIIB | 7 µM
Cc1cn([C@H]2C[C@H](N=[N+]=[N-])[C@@H](COP(=O)(OCCSC(=O)C(C)(C)C)OCCSC(=O)C(C)(C)C)O2)c(=O)[nH]c1=O | MT-4 | - | IIIB | 0.81 µM
CC(C)(C)OC(=O)N[C@@H](Cc1ccccc1)[C@@H](O)C[C@@H](Cc1ccc(OCP(=O)(OCc2ccccc2)OCc2ccccc2)cc1)C(=O)N[C@H]1c2ccccc2C[C@H]1O | MT-4 | - | IIIB | 0.01 µM
CC(C)c1c(Sc2cccc3ccccc23)n(COCCO)c(=O)[nH]c1=O | MT-4 | - | IIIB | 0.23 µM
CC(C)=CCN1Cc2cccc3[nH]c(=S)n(c23)C[C@@H]1C | MT-2 | - | LAI | 0.06 µM
CC(C)OP(=O)(COc1ccc(C[C@H](C[C@H](O)[C@H](Cc2ccccc2)NC(=O)OC(C)(C)C)C(=O)N[C@H]2c3ccccc3C[C@H]2O)cc1)OC(C)C | MT-4 | - | IIIB | 0.02 µM
CCCCNc1nc(N)nc2c1[nH]c[n+]2C[C@@H](C)OCP(=O)(O)O | CEM | - | IIIB | 10 µg/mL
Cc1c(C(C)(C)C)s/c(=N\S(=O)(=O)c2cc(Cl)ccc2N)n1C | MT-4 | - | IIIB | 0.025 µM
C[C@H](CC1CNC2C(N)=NC(N)NC12)OCP(=O)(O)O | MT-4 | - | IIIB | 36.9 ± 5.7 µg/mL
CCc1c(Sc2ccc3ccccc3c2N)n(COC)c(=O)[nH]c1=O | MT-4 | - | IIIB | 25.99 µM

4 of the rows above, restated:

structure,cells,changes,strain or isolate,result
CCN(C)c1nc(N)nc2c1ncn2CCOCP(=O)(O)O,MT-4,-,IIIB,0.19 µg/mL
CC1(C)C2=CC(=O)C(c3ccccc3)([N+](=O)[O-])C(=O)N2c2ccc(Cl)cc21,MT-4,-,RF,13.4 µM
CC(C)(C)OC(=O)N[C@@H](Cc1ccccc1)[C@@H](O)C[C@@H](Cc1ccc(OCC(=O)O)cc1)C(=O)N[C@H]1c2ccccc2C[C@H]1O,MT-4,-,IIIB,>10 µM
CCCc1cc(=O)oc2c3c(c4c(c12)OC(C)(C)C=C4)O[C@H](CC)[C@H](C)[C@@H]3O,CEM + CEM-SS,-,IIIB,>20.9 µM

ECn: concentration that inhibits the pathogen or its effect by n%. Blank or dashed fields: not listed here.